Compound potency records, mixed from different reports. Data source: NIAID ChemDB in PubChem.

Common to all: growth or infection tests; species: Rhinovirus; read by: cytopathic effect; measure: EC50

Lines come from different laboratories, so protocols vary. ECn: concentration that inhibits the pathogen or its effect by n%.

SMILES,strain,cell line,result
CSc1nsc(-c2ccc(OCCCOc3ccc([N+](=O)[O-])cc3)cc2)c1C#N,Serotype 85 (group B),HELA-OHIO,>1 µM
CCSc1nc2ccc(OCCC3CCN(c4ccc(Cl)nn4)CC3)cc2o1,Serotype 2,MRC-5,0.008 µg/mL
CCOC(=O)c1ccc(OCCCCOc2ccc(-c3snc(SC)c3C#N)cc2)cc1,Serotype 41 (group B),HELA-OHIO,>2 µM
Cc1ccc(N2CCC(CCOc3ccc4nc(C)oc4c3)CC2)nn1,Serotype 14,MRC-5,>0.5 µg/mL
CS(=O)(=O)c1ccc(Cc2ccc(Cl)c(Cl)c2)nc1,TYPE 4,HeLa,>10 µg/mL
Cc1cc(OCCCc2ccc(Cl)nn2)cc(C)c1-c1noc(C(F)(F)F)n1,serotypes 3 4 5 9 16 18 38 66 75 67,HeLa,0.03 µg/mL
CSc1nsc(-c2ccc(OCCOc3ccc(C#N)cc3)cc2)c1C#N,Serotype 85 (group B),HELA-OHIO,>2 µM
Cc1c(-c2ccccc2)n(-c2ccc(F)cc2)c2ccc(C(C)C)cc2c1=O,13/353,HELA-OHIO,0.12 µg/mL
CCOC(=O)c1ccc(OCCC2CCN(c3ccc(C)nn3)CC2)cc1,Serotype 14,HeLa,<0.1 µg/mL
C#CCOc1cc(OC)ccc1-c1cc(N(CC)CC)no1,Serotype 2,HeLa,1 µM
Cc1c(-c2ccccc2)n(-c2cccc(F)c2)c2ccc(C(C)C)cc2c1=O,32/363,HELA-OHIO,0.02 µg/mL
CSc1nsc(-c2ccc(OCc3ccccc3)cc2)c1C#N,Serotype 2 (group B),HELA-OHIO,20 µM
COCc1cc(CCCOc2c(Cl)cc(-c3noc(C)n3)cc2Cl)on1,Serotype 30,HeLa,0.015 µg/mL
CCOC(=O)c1ccc(OCCC2CCN(c3ccc(C)nn3)CC2)cc1,Serotype 89 (group B),HELA-OHIO,0.005 µM
CCSc1nc2ccc(OCCC3CCN(c4ccc(C)nn4)CC3)cc2o1,Serotype 2,MRC-5,0.002 µg/mL
COc1ccc(-c2cc(N3CCCC3)no2)c(O)c1,Serotype 86 (group A),HeLa,>384 µM
CS(=O)(=O)c1ccc(Oc2ccc(C(=O)c3ccccc3)cc2)nc1,TYPE 44,HeLa,>5 µg/mL
COc1ccc(CCCOc2cc(C)c(-c3noc(C(F)F)n3)c(C)c2)nn1,serotypes 3 4 5 9 16 18 38 66 75 67,HeLa,0.03 µg/mL
CC(=O)Nc1ccc(Cc2ccc(S(C)(=O)=O)cn2)cc1,TYPE 64,HeLa,>10 µg/mL
CCN(CC)c1cc(-c2ccc(OC)cc2OC)on1,Serotype 9 (group B),HeLa,43.7 µM
COCc1ccc(CCCOc2cc(C)c(-c3noc(C(F)(F)F)n3)c(C)c2)nn1,serotypes 3 4 5 9 16 18 38 66 75 67,HeLa,0.1 µg/mL
COc1ccc(CNc2ccc(S(C)(=O)=O)cn2)cc1OC,TYPE 2,HeLa,>10 µg/mL
CCc1nc(-c2cc(C)c(OCCCc3cc(COC)no3)c(C)c2)no1,Serotype 30,HeLa,0.033 µg/mL
CSc1nsc(-c2ccc(OCCc3ccccc3)cc2)c1C#N,Serotype 15 (group B),HELA-OHIO,10 µM
CCCn1nc2ccc(OCCC3CCN(c4ccc(C)nn4)CC3)cc2n1,Serotype 2,MRC-5,0.032 µg/mL
CSc1nsc(-c2ccc(OC(C)(C)C)cc2)c1C#N,Serotype 59 (group B),HELA-OHIO,>40 µM
CCCCCCS(=O)(=O)c1ccc(Oc2ccc(C(=O)c3ccccc3)cc2)nc1,TYPE 64,HeLa,>10 µg/mL
CSc1nsc(-c2ccccc2)c1C#N,Serotype 41 (group B),HELA-OHIO,>80 µM
CCCc1nc(-c2c(C)cc(OCCCc3ccc(CO)nn3)cc2C)no1,serotypes 3 4 5 9 16 18 38 66 75 67,HeLa,0.02 µg/mL
COC(=O)c1cc(CCCOc2c(C)cc(-c3noc(C)n3)cc2C)on1,Serotype 30,HeLa,0.015 µg/mL
CCCOc1nc2cc(OCCC3CCN(c4ccc(C)nn4)CC3)ccc2s1,Serotype 2,MRC-5,0.166 µg/mL
CS(=O)(=O)c1ccc(NCc2ccc(Cl)c(Cl)c2)nc1,TYPE 1B,HeLa,0.6 µg/mL
CCOc1cc(OC)ccc1-c1cc(N(CC)CC)no1,Serotype 89 (group B),HeLa,10.3 µM
CSc1nsc(-c2ccc(OCCOc3ccc([N+](=O)[O-])cc3)cc2)c1C#N,Serotype 86 (group A),HELA-OHIO,0.4 µM
CCn1c2c(c(=O)c3cc(C(C)C)ccc31)Cc1ccccc1-2,36/342H,HELA-OHIO,0.3 µg/mL
CS(=O)(=O)c1ccc(Cc2ccccc2)nc1,TYPE 1A,HeLa,>10 µg/mL
CCOc1nc2ccc(OCCC3CCN(c4ccc(C)nn4)CC3)cc2s1,Serotype 14,MRC-5,0.006 µg/mL

The last 5 rows once more:

CCOc1cc(OC)ccc1-c1cc(N(CC)CC)no1 ; strain: Serotype 89 (group B) ; cell line: HeLa ; result: 10.3 µM
CSc1nsc(-c2ccc(OCCOc3ccc([N+](=O)[O-])cc3)cc2)c1C#N ; strain: Serotype 86 (group A) ; cell line: HELA-OHIO ; result: 0.4 µM
CCn1c2c(c(=O)c3cc(C(C)C)ccc31)Cc1ccccc1-2 ; strain: 36/342H ; cell line: HELA-OHIO ; result: 0.3 µg/mL
CS(=O)(=O)c1ccc(Cc2ccccc2)nc1 ; strain: TYPE 1A ; cell line: HeLa ; result: >10 µg/mL
CCOc1nc2ccc(OCCC3CCN(c4ccc(C)nn4)CC3)cc2s1 ; strain: Serotype 14 ; cell line: MRC-5 ; result: 0.006 µg/mL